Pooled drug test results. Numbers come from NIAID ChemDB, via PubChem.

Common to all: enzyme or target tests

An empty or dashed field is not shown. Rows are shuffled and stem from different studies. Inhibition is in % at the dose shown (toxicity tests: loss of growth or viability). Two numbers with a dash give a range or band. ICn is the concentration giving n% inhibition.

SMILES	method	dose	protein	strain or isolate	organism	endpoint	value
C/C(=C\CCC1=CC[C@H](C2=CC(=O)O[C@@H]2O)O[C@H]1O)CCC1C(C)CCCC1(C)C	-	-	NS3 RNA helicase activity	-	Hepatitis C virus	IC50	15 µM
COc1nc(Nc2ccc3[nH]ncc3c2)nc(N2CCC(C(N)=O)CC2)n1	-	1 µg/mL	Nonstructural protein 5B	-	Hepatitis C virus	inhibition	48%
Nc1ccc(-c2nc3cc(C(=O)N[C@H](C(=O)O)c4c[nH]c5ccc(O)cc45)ccc3n2C2CCCCC2)cn1	-	-	NS5B polymerase	-	Hepatitis C virus	IC50	1–5 µM
COC(=O)c1cc2nc(-c3ccccc3)cc(-c3ccccc3)n2n1	-	-	RNA-dependent RNA polymerase	-	Hepatitis C virus	IC50	>10 µM
COc1nc(NCCCn2ccnc2)nc(Nc2ccc3cn[nH]c3c2)n1	-	0.1 µg/mL	Nonstructural protein 5B	-	Hepatitis C virus	inhibition	30%
C=Cc1ccc(C(NC(=O)[C@@H](NC(=O)OC(C)(C)C)C(C)(C)C)C(=O)Nc2ccc(C(=O)NS(=O)(=O)c3ccc(C(F)(F)F)cc3)cc2)cc1Oc1cc(OC)nc(-c2ccccc2)n1	FRET	-	Nonstructural protein 3/4A	GT1a	Hepatitis C virus	Ki	0.03 µM
CC(Cc1ccccn1)Nc1cc(C(=O)Nc2ccc3cn[nH]c3c2)c(F)cc1F	-	-	Reverse transcriptase	-	Hepatitis B virus	IC50	0.1–1 µg/mL
COC(=O)C1=C(C(=O)OC)C2N(CCCCCNC(=O)CCCCCNC(=O)CCCC3SCC4NC(=O)NC43)c3ccccc3[C@@]23CC(=O)N(Cc2ccccc2)C3=N1	AlphaScreen	-	Core106 dimerization	-	Hepatitis C virus	IC50	3.7 µM
CC(C)C[C@H](NC(=O)[C@H](CCC(N)=O)NC(=O)[C@@H](NC(=O)CCC(=O)O)C1CCCCC1)C(=O)N[C@@H](CS)C(=O)O	-	1.67 µM	Nonstructural protein 3 NTPase/helicase	-	Hepatitis C virus	inhibition	6%
C=Cc1ccc(C(NC(=O)[C@@H](NC(=O)OC(C)(C)C)C(C)(C)C)C(=O)Nc2cccc(C(=O)NS(=O)(=O)c3ccc(C(F)(F)F)cc3)c2)cc1Oc1cc(OC)nc(-c2ccccc2)n1	FRET	-	Nonstructural protein 3/4A	GT1a	Hepatitis C virus	Ki	0.024 µM
CC(C)CNc1cc(C(=O)Nc2ccc3cn[nH]c3c2)c(F)cc1F	-	0.1 µg/mL	Reverse transcriptase	-	Hepatitis B virus	inhibition	30%
COc1ccc(CC(NC(=O)c2ccc3c(c2)nc(-c2cccs2)n3C2CCCCC2)C(=O)O)cc1OC	-	-	NS5B polymerase	-	Hepatitis C virus	IC50	<1 µM
O=C(O)c1ccc(Cl)cc1NS(=O)(=O)c1cc(Cl)c(Cl)cc1Cl	nucleotide incorporation	-	HCV NS5B polymerase	gt 1	Hepatitis C virus	IC50	11 µM
O=C(N[C@H](C(=O)O)c1c[nH]c2ccc(O)cc12)c1ccc2c(c1)nc(-c1ccc(=O)[nH]c1)n2C1CCCCC1	-	-	NS5B polymerase	-	Hepatitis C virus	IC50	<1 µM
CC(=O)N[C@H](C(=O)N[C@H](C(=O)N1C[C@H](Oc2nc3ccccc3s2)CC1C(=O)NC1(C(=O)O)CC1)C(C)C)C1CCCCC1	-	-	NS3 protease	-	Hepatitis C virus	IC50	20 µM
COc1ccc(-c2ccc(-c3cnc4c(C(=O)O)cnn4c3C3CCCCC3)cc2)cc1F	-	-	RNA-dependent RNA polymerase	-	Hepatitis C virus	IC50	1–10 µM
COc1nc(Nc2ccc3[nH]ncc3c2)nc(N2CCOCC2)n1	-	1 µg/mL	DNA polymerase	-	Hepatitis B virus	inhibition	56%
COC(=O)C1=C(C(=O)OC)C2N(C)c3ccc(OC)cc3[C@@]23C[C@@H](C(=O)OC)N(C(=O)CC(C)C)C3=N1	AlphaScreen	-	Core106 dimerization	-	Hepatitis C virus	IC50	9.3 µM
Cn1cc([C@H](NC(=O)c2ccc3c(c2)nc(-c2ccoc2)n3C2CCCCC2)C(N)=O)c2cc(OC(C)(C)C(=O)O)ccc21	-	-	NS5B polymerase	-	Hepatitis C virus	IC50	1–5 µM
CC(=O)N[C@H](C(=O)N[C@H](C(=O)N1C[C@H](Oc2ccncc2)CC1C(=O)NC1(C(=O)O)CC1)C(C)C)C1CCCCC1	-	-	NS3 protease	-	Hepatitis C virus	IC50	170 µM
COc1ccc([C@H](C)NC(=O)c2ccc3c(c2)nc(-c2ccccn2)n3C2CCCCC2)cc1OC	-	-	NS5B polymerase	-	Hepatitis C virus	IC50	1–5 µM
O=C(Nc1ccc2[nH]ncc2c1)c1cc(NCCc2ccccn2)c(F)cc1F	-	-	Reverse transcriptase	-	Hepatitis B virus	IC50	0.1–1 µg/mL
O=C(O)c1ccccc1NS(=O)(=O)c1cc(Cl)c(Cl)cc1Cl	nucleotide incorporation	-	HCV NS5B polymerase	gt 1	Hepatitis C virus	IC50	26 µM
C[C@@]1(O)[C@H](O)[C@@H](COP(=O)(O)OP(=O)(O)OP(=O)(O)O)O[C@H]1n1ccc2c(N)ncnc21	-	-	NS5B delta .21	-	Hepatitis C virus	IC50	17 µM
CC1=C(c2nc3cc(C(=O)N[C@@H](Cc4c[nH]c5ccc(O)cc45)C(=O)O)ccc3n2C2CCCCC2)CN=N1	-	-	NS5B polymerase	-	Hepatitis C virus	IC50	<1 µM
Cc1ccc(Cl)cc1Oc1ccc(-c2cnc3c(-c4nn[nH]n4)cnn3c2C2CCCCC2)cc1	-	-	RNA-dependent RNA polymerase	-	Hepatitis C virus	IC50	1–10 µM
O=C(N[C@@H](Cc1ccc(O)cc1)C(=O)O)c1ccc2c(c1)nc(-c1ccoc1)n2C1CCCCC1	-	-	NS5B polymerase	-	Hepatitis C virus	IC50	<1 µM
COCCNc1nc(Nc2ccc3cn[nH]c3c2)nc(OC)n1	-	1 µg/mL	DNA polymerase	-	Hepatitis B virus	inhibition	75%
C[C@@]1(O)[C@H](O)[C@@H](COP(=O)(O)OP(=O)(O)OP(=O)(O)O)O[C@H]1n1ccc2c(=O)[nH]c(N)nc21	-	-	NS5B delta .21	-	Hepatitis C virus	IC50	1.5 µM
CC(=O)N[C@H](C(=O)N[C@H](C(=O)N1C[C@H](Oc2ccc(Cl)c3cccnc23)CC1C(=O)NC1(C(=O)O)CC1)C(C)C)C1CCCCC1	-	-	NS3 protease	-	Hepatitis C virus	IC50	100 µM
c1ccc(-c2ccc(-c3cnc4c(-c5nn[nH]n5)cnn4c3C3CCCCC3)cc2)cc1	-	-	RNA-dependent RNA polymerase	-	Hepatitis C virus	IC50	1–10 µM
O=C(O)CCC(=O)N[C@H](C(=O)N[C@@H](CCC(=O)O)C(=O)N[C@@H](Cc1ccc2ccccc2c1)C(=O)N[C@@H](CS)C(=O)O)C(c1ccccc1)c1ccccc1	-	1.67 µM	Nonstructural protein 3 NTPase/helicase	-	Hepatitis C virus	inhibition	3%
C=Cc1ccc(C(NC(=O)OC(C)(C)C)C(=O)Nc2ccc(C(=O)NS(=O)(=O)c3ccc(C(F)(F)F)cc3)cc2)cc1Oc1cc(OC)nc(-c2ccccc2)n1	FRET	-	Nonstructural protein 3/4A	GT1a	Hepatitis C virus	Ki	0.046 µM
CO[C@@H]1[C@H](O)[C@@H](COP(=O)(O)OP(=O)(O)OP(=O)(O)O)O[C@H]1n1cnc2c(=O)[nH]c(N)nc21	-	-	NS5B delta .21	-	Hepatitis C virus	IC50	1.2 µM
O=C(N[C@H](C(=O)O)c1c[nH]c2ccc(O)cc12)c1ccc2c(c1)nc(-c1ccc3ccccc3n1)n2C1CCCCC1	-	-	NS5B polymerase	-	Hepatitis C virus	IC50	5–10 µM
COc1ccc(S(=O)(=O)Nc2cnn3c(C4CCCCC4)c(-c4ccc(OCc5ccccc5)cc4)cnc23)cc1	-	-	RNA-dependent RNA polymerase	-	Hepatitis C virus	IC50	>10 µM
COC(=O)[C@H](Cc1c[nH]c2ccc(O)cc12)NC(=O)c1ccc2c(c1)nc(-c1ccoc1)n2C1CCCCC1	-	-	NS5B polymerase	-	Hepatitis C virus	IC50	<1 µM
C=Cc1ccc(C(NC(=O)OC2CCCC2)C(=O)Nc2cccc(C(=O)NS(=O)(=O)c3ccc(C(F)(F)F)cc3)c2)cc1Oc1cc(OC)nc(-c2ccccc2)n1	FRET	-	Nonstructural protein 3/4A	GT1a	Hepatitis C virus	Ki	0.072 µM
CC(=O)Nc1cccc(-c2cccc(O[C@@H]3CC(C(=O)NC4(C(=O)O)CC4)N(C(=O)[C@@H](NC(=O)[C@@H](NC(C)=O)C4CCCCC4)C(C)C)C3)c2)c1	-	-	NS3 protease	-	Hepatitis C virus	IC50	6 µM
COC(=O)[C@H](Cc1c[nH]c2ccccc12)NC(=O)c1cc2nc(-c3ccco3)c(C3CCCCC3)c(=O)n2[nH]1	-	-	RNA-dependent RNA polymerase	-	Hepatitis C virus	IC50	<1 µM
O=C(O)CCCC(=O)N[C@@H](CCC(=O)O)C(=O)N[C@@H](CCC(=O)O)C(=O)NC1(C(=O)O)CC1	-	-	Nonstructural protein 3 NTPase/helicase	-	Hepatitis C virus	IC50	>167 µM
O=C(N[C@@H](Cc1c[nH]c2ccc(O)cc12)C(=O)O)c1ccc2nc(-c3ccoc3)[nH]c2c1	-	-	NS5B polymerase	-	Hepatitis C virus	IC50	<1 µM
CC(=O)N[C@H](C(=O)N[C@@H](CCC(=O)O)C(=O)N[C@@H](CCC(=O)O)C(=O)N[C@@H](CS)C(=O)O)C1CCCCC1	-	16.7 µM	Nonstructural protein 3 NTPase/helicase	-	Hepatitis C virus	inhibition	50%
CO[C@@H]1[C@H](O)[C@@H](COP(=O)(O)OP(=O)(O)OP(=O)(O)O)O[C@H]1n1ccc2c(=O)[nH]c(N)nc21	-	-	NS5B delta .21	-	Hepatitis C virus	IC50	3.4 µM
O=C(O)COc1ccc(CC[C@H](NC(=O)c2ccc3c(c2)nc(-c2ccoc2)n3C2CCCCC2)C(=O)O)cc1	-	-	NS5B polymerase	-	Hepatitis C virus	IC50	<1 µM
CCC(C)[C@H](NC(=O)[C@@H](NC(=O)CCC(=O)O)C1CCCCC1)C(=O)N[C@@H](CC1CCCCC1)C(=O)N[C@@H](CS)C(=O)O	-	16.7 µM	Nonstructural protein 3 NTPase/helicase	-	Hepatitis C virus	inhibition	82%
Cc1cc(-c2cnc3c(C(=O)O)cnn3c2C2CCCCC2)ccc1F	-	-	RNA-dependent RNA polymerase	-	Hepatitis C virus	IC50	1–10 µM
CC[C@H](C)[C@H](NC(=O)[C@H](CC(C)C)NC(=O)CCC(=O)O)C(=O)N[C@@H](CC1CCCCC1)C(=O)NC1(C(=O)O)CC1	-	-	Nonstructural protein 3 NTPase/helicase	-	Hepatitis C virus	IC50	>167 µM
C=Cc1ccc(C(NC(=O)NC(C)(C)C)C(=O)Nc2cccc(C(=O)NS(=O)(=O)c3ccc(C(F)(F)F)cc3)c2)cc1Oc1cc(OC)nc(-c2ccccc2)n1	FRET	-	Nonstructural protein 3/4A	GT1a	Hepatitis C virus	Ki	0.14 µM
COc1nc(NCCc2ccccn2)nc(Nc2ccc3[nH]ncc3c2)n1	-	10 µg/mL	Nonstructural protein 5B	-	Hepatitis C virus	inhibition	55%
COC(=O)[C@H](Cc1ccc(Nc2c(O)c(=O)c2=O)cc1)NC(=O)c1ccc2c(c1)nc(-c1ccoc1)n2C1CCCCC1	-	-	NS5B polymerase	-	Hepatitis C virus	IC50	<1 µM
O=C(O)CCCC(=O)N[C@H](C(=O)N[C@@H](CCC(=O)O)C(=O)N[C@@H](CCC(=O)O)C(=O)N[C@@H](CS)C(=O)O)C1CCCCC1	-	1.67 µM	Nonstructural protein 3 NTPase/helicase	-	Hepatitis C virus	inhibition	13%
O=C(N[C@H](C(=O)O)c1c[nH]c2ccc(O)cc12)c1ccc2c(c1)nc(-c1cnccn1)n2C1CCCCC1	-	-	NS5B polymerase	-	Hepatitis C virus	IC50	<1 µM
O=C(Nc1ccc2cn[nH]c2c1)c1cc(NCCCn2ccnc2)c(F)cc1F	-	1 µg/mL	Reverse transcriptase	-	Hepatitis B virus	inhibition	69%
O=C(/C=C/c1ccc(O)c(O)c1)O[C@H]1[C@H](O)C[C@](O)(C(=O)O)C[C@H]1OC(=O)/C=C/c1ccc(O)c(O)c1	ELISA	-	HBeAg	HepG 2.2.15	Hepatitis B virus	IC50	50.06 µg/mL
COc1ccc(CNC(=O)c2ccc3c(c2)nc(-c2ccccn2)n3C2CCCCC2)c(OC)c1OC	-	-	NS5B polymerase	-	Hepatitis C virus	IC50	10–25 µM
CC(C)C[C@H](NC(=O)CCC(=O)O)C(=O)N[C@@H](CCC(=O)O)C(=O)N[C@@H](CCC(=O)O)C(=O)NC1(C(=O)O)CC1	-	-	Nonstructural protein 3 NTPase/helicase	-	Hepatitis C virus	IC50	>83.5 µM
CC(=O)N[C@H](C(=O)N[C@H](C(=O)N1C[C@H](Oc2ccc(Br)cc2)CC1C(=O)NC1(C(=O)O)CC1)C(C)C)C1CCCCC1	-	-	NS3 protease	-	Hepatitis C virus	IC50	25 µM
Cc1cc(-c2nc3cc(C(=O)N[C@H](C(=O)O)c4c[nH]c5ccc(O)cc45)ccc3n2C2CCCCC2)nn1C	-	-	NS5B polymerase	-	Hepatitis C virus	IC50	5–10 µM
O=C(O)c1cc2nc(-c3ccccc3Cl)cc(-c3ccc(Cl)cc3)n2n1	-	-	RNA-dependent RNA polymerase	-	Hepatitis C virus	IC50	>10 µM
NS(=O)(=O)c1ccc(CCNc2cc(C(=O)Nc3ccc4cn[nH]c4c3)c(F)cc2F)cc1	-	0.1 µg/mL	Reverse transcriptase	-	Hepatitis B virus	inhibition	51%
O=C(N[C@H](C(=O)O)c1c[nH]c2ccc(O)cc12)c1ccc2c(c1)nc(-c1ccc(N3CCCC3)cc1)n2C1CCCCC1	-	-	NS5B polymerase	-	Hepatitis C virus	IC50	1–5 µM